Pooled drug test results. Numbers come from NIAID ChemDB, via PubChem.

Shared fields: whole-cell or culture tests; organism: Human cytomegalovirus; read by: plaque count; read-out: EC50

Conditions beyond the fields shown may differ between rows. ECn: concentration that inhibits the pathogen or its effect by n%. Two numbers with a dash give a range or band. Blank or dashed fields: not listed here.

structure | strain | cells | changes | result
COc1ccc2c(c1OC)C=[N+]1CCc3cc4c(cc3C1C2)OCO4 | - | MRC-5 | - | 0.68 µM
O[C@@H]1[C@H](O)[C@H](O)CO[C@H]1n1c(Br)nc2cc(Cl)c(Cl)cc21 | AD169 | HFF | - | 2.2 µM
OC[C@H]1O[C@@H](n2c(Br)nc3cc(Cl)c(Cl)cc32)[C@H](O)[C@@H]1O | TOWNE | HFF | - | 2.7 µM
Nc1cc2c(=O)c(C(=O)O)cn(C3CC3)c2cc1N1CCN(c2cccc(C(F)(F)F)c2)CC1 | AD169 | HEL | - | 0.86 µg/mL
C=CCOc1nc(N)nc2c1ncn2/C=C1/C[C@@H]1CO | - | HFF | - | 2.1 µM
O=C1c2ccccc2N(Cc2ccccc2)S(=O)(=O)N1Cc1cc(Cl)c(Cl)c(Cl)c1Cl | AD169 | MRC-5 | - | 6 µM
Cc1cn([C@H]2C[C@H](O)[C@]3(CO)C[C@H]23)c(=O)[nH]c1=O | - | - | - | >20 µg/mL
Nc1nc2c(ncn2COC(CO)CO)c(=O)[nH]1 | TOWNE | HFF | - | 7.4 µM
Cc1cncc2ccc(C(=O)NCc3ccccc3OC(C)C)nc12 | C8704 (ganciclovir-resistant UL97 mutant) | MRC-5 | - | 0.11 µg/mL
Nc1nc2c(ncn2COC(CO)CO)c(=O)[nH]1 | AD169 | HEL | - | 0.77 µg/mL
OC[C@H]1O[C@@H](n2c(Br)nc3cc(Cl)c(Cl)cc32)[C@H](O)[C@@H]1O | 1038RC | MRC-5 | - | 6 µM
Nc1nc2c(ncn2[C@@H]2C[C@H](CO)[C@H]2CO)c(=O)[nH]1 | - | - | - | 1–10 µM
O=C(COc1cccc2ccccc12)NN=CCc1ccccc1 | DAVIS | HEL | - | >20 µg/mL
Nc1nccc2c1ncn2C[C@@H](CO)OCP(=O)(O)O | DAVIS | HEL | - | 0.12 µM
NC(=O)c1c(Cl)c(-c2cccnc2)n2c1CCCC2 | Foscarnet-resistant | HEL | - | 0.12 µM
Nc1nc2c(ncn2C=C2CC2CO)c(=O)[nH]1 | AD169 | HFF | - | 0.3 µM
Nc1ncnc2c1ncn2C12CCC(O)C1(CO)C2 | - | HFF | - | 2.4 µg/mL
Nc1ccn(C[C@@H](CO)OCP(=O)(O)O)c(=O)n1 | C8914-6 | HFF | - | 6 µM
Nc1nc(NC2CC2)c2ncn(/C=C3/C[C@@H]3CO)c2n1 | - | HFF | - | 1.9 µM
Nc1nc2c(ncn2C[C@@H]2CC[C@H](P(=O)(O)O)O2)c(=O)[nH]1 | WF1 | FLOW 2002 | - | 0.5 µg/mL
Nc1nc2c(ncn2COC(CO)CO)c(=O)[nH]1 | VR4760 (ganciclovir-resistant) | - | - | 40 µM
Clc1ccc(Nc2ncnc3ccccc23)cc1Cl | AD169 | HFF | - | >3 µM
Nc1nc2c(ncn2COC(CO)CO)c(=O)[nH]1 | AD169 | - | - | 1.5 µM
Nc1nc2c(ncn2CCC(CO)CO)c(=O)[nH]1 | AD169 | HFF | - | 150 µM
CC(C)Nc1nc2cc(Cl)c(Cl)cc2n1[C@H]1O[C@@H](CO)[C@H](O)[C@@H]1O | D10 (BDCRB-resistant) | HFF | - | 72 µM
O=C(O)P(=O)(O)O | Cidofovir-resistant | HEL | - | 59.2 µM
OC[C@H]1O[C@@H](c2cc(Cl)nc3cc(Cl)c(Cl)cc23)C(O)C1O | - | HFF | - | 30 µM
Nc1ncnc2c1ncn2C=C1CC1CO | AD169 | HFF | - | 2.1 µM
CCCOc1nc(N)nc2c1ncn2/C=C1/C[C@@H]1CO | - | HFF | - | 2 µM
Nc1ncnc2c1ncn2C[C@H]1COP(=O)(O)CO1 | AD169 | HEL | - | 0.23 µM
C#CCNc1nc(N)nc2c1ncn2/C=C1/C[C@@H]1CO | - | HFF | - | 2.6 µM
Nc1nc2c(ncn2COC(CO)CO)c(=O)[nH]1 | DAVIS | HFF | - | 4.3 µM
Nc1ncc2c(ncn2COC(CO)CO)n1 | AD169 | HFF | - | 0.5 µM
COc1cc2ncnc(Nc3ccc(Br)cc3)c2cc1OC | AD169 | HFF | - | <3 µM
Cn1cc(C(=O)O)c(=O)c2cc(N)c(N3CCN(c4nccs4)CC3)cc21 | AD169 | HEL | - | 2.6 µg/mL
Nc1ncnc2c1ncn2C[C@H]1CS[C@@H](P(=O)(O)O)O1 | WF1 | FLOW 2002 | - | 60 µg/mL
Nc1ncnc2c1ncn2C[C@@H](CO)OCP(=O)(O)O | AD169 | HEL | - | 0.21 µM
Nc1nc2c(ncn2COC(CO)CO)c(=O)[nH]1 | Isolate T1337 | MRC-5 | - | 2.51 µM
OC[C@H]1O[C@@H](n2c(Br)nc3cc(Cl)c(Cl)cc32)[C@H](O)[C@@H]1O | D10 (D341E) | - | - | 13 µM
Nc1nc(N)c2ncn(C[C@H]3CC[C@H](P(=O)(O)O)O3)c2n1 | WF1 | FLOW 2002 | - | 65 µg/mL
Nc1nc2c(ncn2COC(CO)CO)c(=O)[nH]1 | AD169 | MRC-5 | - | 7 µM
[O-][n+]1onc2ncnc(N3CC[N+]4(CC3)CC[N+]3(CCN(c5ncnc6no[n+]([O-])c56)CC3)CC4)c21 | Clinical isolate | HELF | Ganciclovir-sensitive | 0.16 µM
OC[C@H]1O[C@@H](n2c(Br)nc3cc(Cl)c(Cl)cc32)[C@H](O)[C@@H]1O | GDGRP53 (drug-resistant) | HFF | - | 2.1 µM
CC#Cc1cn([C@@H]2O[C@H](CO)[C@@H](O)[C@@H]2O)c(=O)[nH]c1=O | - | MRC-5 | - | >100 µM
Cc1ccn2c(CSCCO)cnc2c1 | AD169 | HEL | - | >40 µg/mL
Cc1ccc2ncnc(Nc3ccc(Cl)c(Cl)c3)c2c1 | AD169 | HFF | - | >3 µM
C=CCNc1nc(N)nc2c1ncn2/C=C1/C[C@@H]1CO | - | HFF | - | 2.8 µM
Nc1nc2c(ncn2C[C@@H]2CO[C@H](P(=O)(O)O)O2)c(=O)[nH]1 | WF1 | FLOW 2002 | - | 15 µg/mL
Cc1cn([C@@]23C[C@H](O)[C@@H](CO)[C@@H]2C3)c(=O)[nH]c1=O | - | HFF | - | >20 µg/mL
CCCCCCCC/C=C\CCCCCCCCOCCOP(=O)(O)CO[C@H](CO)Cn1ccc(N)nc1=O | TOWNE | HFF | - | 0.002 µM

Repeating the final 4 entries:

structure | strain | cells | changes | result
C=CCNc1nc(N)nc2c1ncn2/C=C1/C[C@@H]1CO | - | HFF | - | 2.8 µM
Nc1nc2c(ncn2C[C@@H]2CO[C@H](P(=O)(O)O)O2)c(=O)[nH]1 | WF1 | FLOW 2002 | - | 15 µg/mL
Cc1cn([C@@]23C[C@H](O)[C@@H](CO)[C@@H]2C3)c(=O)[nH]c1=O | - | HFF | - | >20 µg/mL
CCCCCCCC/C=C\CCCCCCCCOCCOP(=O)(O)CO[C@H](CO)Cn1ccc(N)nc1=O | TOWNE | HFF | - | 0.002 µM